The list shows a part of the results, in another mix than the full data. Activity calls are given as the source filed them. Rule as the data show it: active = inhibition above about 50%; inactive = the rest.

In the test the test system is Plasmodium falciparum apicoplast DNA polymerase (apPOL). Briefly: Pf-apPOL inhibitors, biochemical, fluorescence (AID 1794808). The following applies: Recombinant Pf-apPOL, molecular beacon fluorescence, 1.5 h; at 10 µM; hits give high values.
For the molecule `O=C(Nc1nnc(N=Cc2ccc([N+](=O)[O-])s2)s1)c1cc([N+](=O)[O-])cc([N+](=O)[O-])c1`, the inhibition is inactive: -3.8%.
As for `O=C(NC(Nc1cccc([N+](=O)[O-])c1)C(Cl)(Cl)Cl)c1cc([N+](=O)[O-])cc([N+](=O)[O-])c1` (configuration not stated), the figure is inactive: -1.9%; as for `O=[N+]([O-])c1cc2c(c([N+](=O)[O-])c1)-c1c(cc([N+](=O)[O-])cc1[N+](=O)[O-])C2=Cc1ccccc1O`, inactive: -1.1%.
The result for `O=C(NC(Sc1ncccn1)C(Cl)(Cl)Cl)c1ccccc1` (configuration not stated) reads inactive: -0.1%.
The result for `CC1C(=O)OC(C(Cl)(Cl)Cl)N1C(O)C(Cl)(Cl)Cl` (configuration not stated) reads inactive: -7.2%; that for `COc1ccc(N=Cc2c([N+](=O)[O-])cc([N+](=O)[O-])cc2[N+](=O)[O-])cc1`, inactive: 0%.
With `Nc1nonc1OCCOc1nonc1N`, the inhibition is inactive: -1.8%.
The result for `O=C(Cn1cnc([N+](=O)[O-])n1)NCCO[N+](=O)[O-]` reads inactive: 0.2%.
For the molecule `O=[N+]([O-])c1cc(S(=O)(=O)c2cc([N+](=O)[O-])c(O)c([N+](=O)[O-])c2)cc([N+](=O)[O-])c1O`, the inhibition was inactive: -0.7%.
As to `Cc1nc2c(C)cccc2c2c1CC(C(Cl)Cl)S2` (configuration not stated), the inhibition is inactive: -3.5%.
As for `O=[N+]([O-])c1ccc(-n2ncc3ccc([N+](=O)[O-])cc32)c([N+](=O)[O-])c1`, the figure is inactive: 2%.
For `O=C(NC(Nc1ccc([N+](=O)[O-])cc1)C(Cl)(Cl)Cl)c1cc([N+](=O)[O-])cc([N+](=O)[O-])c1` (configuration not stated), the inhibition was inactive: -0.8%.
As for `CN(C)C(=O)NC(SC1=NCCS1)C(Cl)(Cl)Cl` (configuration not stated), the figure is inactive: -8.2%; as for `O=C(OC1CN2CCC1CC2)c1ccc(Cl)cc1` (configuration not stated), inactive: -3.9%.
Consider `CN(C(=O)Cc1ccc(Cl)c(Cl)c1)[C@@H]1CC[C@]2(CCCO2)C[C@H]1N1CCCC1`, for which the inhibition was inactive: -7.8%.
As for `CN(C(=O)Cc1ccccc1)[C@@H]1CC[C@]2(CCCO2)C[C@H]1N1CCCC1`, the figure is inactive: 10.4%.
As for `O=[N+]([O-])c1ccc(Oc2c([N+](=O)[O-])cc(C(F)(F)F)cc2[N+](=O)[O-])cc1`, the figure is inactive: -3.6%.
As to `O=P(Nc1nccs1)(Oc1ccccc1)Oc1ccccc1`, the inhibition was inactive: -1.6%.
The result for `Cc1ccc(S(=O)(=O)N2CC(=O)SC2C(Cl)(Cl)Cl)cc1` (configuration not stated) reads inactive: -5.2%; that for `CC1(C)SC2N(C(=O)C2(Br)Br)C1C(=O)O` (configuration not stated), inactive: -10%; that for `Cc1c(N=Cc2ccc([N+](=O)[O-])cc2)cc([N+](=O)[O-])cc1[N+](=O)[O-]`, inactive: -16.3%.
`CN1CC(=O)NC1=NP(=O)(OCc1ccccc1)OCc1ccccc1`: the inhibition was inactive: 2.9%.

These data come from PubChem BioAssay AID1794808 (University of Kansas High Throughput Screening Laboratory, 2022).
